This assay has as its target PexRD54 full-length protein (purified) (UniProt D0NBE6). As to the kind of experiment: ITC. Particulars: single site binding model.

What is called Kd is the equilibrium constant for the complex coming apart. A high value points to lower affinity.

Substance “ATG8-4 (potato), residues Thr4-Lys113, C-terminal 6xHis V32I” had a Kd of 593 nM.

Source of the values: paper PMC6675122, “N-terminal β-strand underpins biochemical specialization of an ATG8 isoform” (PLoS Biology, 2019).
